The values that follow come from patent US20020192223A1 (priority 1989, published 2002).

pEC50: −log10 of the molar value.

Holding throughout (assay): Inhibition of protein synthesis ([3H]-leucine), Example 13
In one assay the test system is L929 cells. In kind it is cell-based. The conditions noted are these: L929, mouse Fblst, BR96 antigen negative.
The test system of the next assay is KB cells. In kind it is cell-based, human. The conditions noted are these: epidermoid Ca., BR96 antigen negative.
The next assay concerns L2987 cells. In kind it is cell-based, human. The conditions noted are these: L2987, lung Ca., BR96 antigen positive.
The subject of the next assay is MCF-7 cells. In kind it is cell-based, human.
In the next assay the test system is A2780 cells. In kind it is cell-based, human. The settings on record: A2780, ovarian Ca., BR96 antigen negative.
For another assay, the system named is RCA cells. In kind it is cell-based, human. The conditions noted are these: colon Ca., BR96 antigen positive.

What is called pEC50 is the EC50 on a negative log10 scale, so that one unit is a factor of ten. With Pseudomonas exotoxin A, the negative-log EC50 (pEC50) in the assay with L929 cells is 11.52; in the assay on KB cells, 9.64; in the assay on L2987 cells, 9.85; with MCF-7 cells (MCF-7, breast Ca., BR96 antigen positive), 9.70; with MCF-7 cells (MCF-7, 1 hour incubation), below 8.00; in the assay with MCF-7 cells (MCF-7, 20 hours), 9.70. Moreover, the pEC50 in the assay on A2780 cells is 10.22; with RCA cells, 9.42.
